The term IC50 denotes the concentration that gives 50% inhibition.

Here are results for one substance from patent US20070032460A1, “Use of voacamine and related compounds in the treatment of malaria” (priority 2005, published 2007).

This test deals with CQ-resistant (W2) strain of P. falciparum. The experiment in a line: Antimalarial IC50, radiolabel incorporation in cultured P. falciparum, chloroquine-resistant strain.

With N6Demethylvoacamine, the “Ratio (S/R)” value (IC50 against sensitive strain divided by IC50 for resistant strain) amounted to 0.5. Further, the IC50 (read-out: IC50 (10^−7 M) R, chloroquine-resistant strain of P. falciparum, in vitro, Table V) turned out to be 960 nM.
